Reference: US20240067634A1, “INHIBITORS OF NEF DOWNMODULATION” (priority 2020, published 2024)

System: PHA-activated primary human PBMCs
Test: Toxicity, MTT viability assay
Conditions: HIV-1 infected primary T cells; EC50 vs 72 hour MTT, FIG. 4

C/C=C/[C@H]1O[C@@](O)([C@@H](C)[C@H](O)[C@H](C)[C@H]2OC(=O)/C(OC)=C/C(C)=C/[C@@H](C)[C@@H](O)[C@@H](CC)[C@@H](O)[C@H](C)C/C(C)=C/C=C/[C@@H]2OC)C[C@@H](O[C@H]2C[C@@H](O)[C@H](OC(N)=O)[C@@H](C)O2)[C@@H]1C [CMA, Concanamycin A]
therapeutic window between effective and toxic doses: > five and five
